Reference: paper PMC7150935 (Toxins, 2020)

Amino acid sequences for entries named in this document (tags omitted). Residues count along the entry.
UniProt P04757, 26-499 limits assumed: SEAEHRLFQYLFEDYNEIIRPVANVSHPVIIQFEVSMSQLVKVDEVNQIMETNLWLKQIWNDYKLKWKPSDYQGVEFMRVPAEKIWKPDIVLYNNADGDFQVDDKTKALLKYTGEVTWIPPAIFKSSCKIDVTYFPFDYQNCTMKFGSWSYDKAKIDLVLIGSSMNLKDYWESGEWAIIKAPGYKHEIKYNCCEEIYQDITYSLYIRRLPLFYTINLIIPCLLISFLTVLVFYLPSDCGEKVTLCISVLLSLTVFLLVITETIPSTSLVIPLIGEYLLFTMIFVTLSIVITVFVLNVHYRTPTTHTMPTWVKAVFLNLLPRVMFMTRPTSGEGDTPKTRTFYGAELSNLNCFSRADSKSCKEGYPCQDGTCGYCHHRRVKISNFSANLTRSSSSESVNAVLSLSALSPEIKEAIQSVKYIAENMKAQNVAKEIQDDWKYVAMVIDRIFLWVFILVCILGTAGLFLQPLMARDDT
UniProt P12392, 21-495 limits assumed: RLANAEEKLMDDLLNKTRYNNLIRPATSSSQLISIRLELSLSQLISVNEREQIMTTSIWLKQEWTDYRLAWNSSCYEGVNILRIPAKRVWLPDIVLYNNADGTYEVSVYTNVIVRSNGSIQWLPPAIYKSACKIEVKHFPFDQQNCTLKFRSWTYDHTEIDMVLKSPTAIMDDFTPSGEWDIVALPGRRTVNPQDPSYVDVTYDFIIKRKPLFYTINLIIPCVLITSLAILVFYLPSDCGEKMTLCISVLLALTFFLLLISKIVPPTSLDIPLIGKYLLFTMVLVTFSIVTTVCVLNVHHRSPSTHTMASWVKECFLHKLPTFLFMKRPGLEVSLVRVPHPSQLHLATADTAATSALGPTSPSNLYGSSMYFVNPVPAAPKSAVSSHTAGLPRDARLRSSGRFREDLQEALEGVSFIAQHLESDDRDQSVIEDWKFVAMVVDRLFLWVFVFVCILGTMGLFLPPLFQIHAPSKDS

Legend:
[1] = test system: nAChRs at X. laevis LP muscle NMJs; assay: Fluorescence imaging of TMR α-BgTX binding at X. laevis LP NMJs; details: 10 μM αM-MIIIJ, 10-min pretreatment; 1 μg/mL TMR α-BgTX, 30 min
[2] = test system: nAChRs at NMJs of zebrafish fast fibers; assay: Fluorescence imaging of Alexa488 α-BgTX binding, zebrafish fast fibers; details: 10 μM αM-MIIIJ, 10-min pre-treatment, 1 μg/mL Alexa488 α-BgTX
rat α3β4 nAChR = rat α3β4 nAChR (Rattus norvegicus, UniProt P04757+P12392); assay: Block of ACh-gated currents (IACh) in voltage-clamped X. laevis oocytes, rα3β4; details: 10 μM, highest concentration tested
[3] = test system: nAChRs at NMJs of zebrafish slow fibers; assay: Fluorescence imaging of Alexa488 α-BgTX binding, zebrafish slow fibers; details: 10 μM αM-MIIIJ, 10-min pre-treatment, 1 μg/mL Alexa488 α-BgTX
zebrafish αβε nAChR = assay: Block of ACh-gated currents (IACh) in voltage-clamped X. laevis oocytes, zαβε; details: n = 3
zebrafish αβδε nAChR = assay: Protection against slowly-reversible block by α-EI or α-BgTX, zαβδε in oocytes; details: 10 μM αM-MIIIJ; α-BgTX 10 μg/mL
zebrafish αβδγ nAChR = assay: Protection against slowly-reversible block by α-EI or α-BgTX, zαβδγ in oocytes; details: 10 μM αM-MIIIJ; α-BgTX 10 μg/mL

## CC[C@H](C)[C@@H]1NC(=O)[C@H](CC(C)C)NC(=O)[C@H](CCCNC(=N)N)NC(=O)[C@H](CC(=O)O)NC(=O)[C@H](CCCNC(=N)N)NC(=O)[C@H](Cc2ccccc2)NC(=O)[C@H](Cc2ccc(O)cc2)NC(=O)[C@H](CC(C)C)NC(=O)[C@@H]2CCCN2C(=O)[C@@H]2CSSC[C@@H](C(=O)O)NC(=O)[C@@H]3CSSC[C@H](NC(=O)[C@H](CCCCN)NC(=O)[C@@H]4CCC(=O)N4)C(=O)N[C@@H](CSSC[C@H](NC1=O)C(=O)N1CCC[C@H]1C(=O)N3)C(=O)N[C@@H](CO)C(=O)NCC(=O)NCC(=O)N[C@@H](CO)C(=O)N2 [αM-MIIIJ]
[1]
  inhibition of TMR α-BgTX binding: very little binding of TMR α-BgTX
[2]
  inhibition of Alexa488 α-BgTX binding: inhibited α-BgTX binding to both types of muscle fibers
Rat α3β4 nAChR
  block of IACh: failed to block IACh
[3]
  inhibition of Alexa488 α-BgTX binding: inhibited α-BgTX binding to both types of muscle fibers
Zebrafish αβε nAChR; 5-min toxin exposure, static bath, ACh 100 μM 1-s pulse, 1/min, −70 mV, 95% C.I. in parentheses, data steeper than Langmuir isotherm fit
  IC50: 34 nM
Zebrafish αβε nAChR; washout, single-exponential fit, 95% C.I. of 0.7–0.9
  koff: 0.0133 s⁻¹
Zebrafish αβδε nAChR
  protection against α-BgTX block: largely protected
Zebrafish αβδγ nAChR
  protection against α-BgTX block: only partial protection
